{"sequences": {"note": "By UniProt entry, the sequences of proteins in these tests, tags left out. Where a name states a change or a piece, a line headed by the entry shows the natural chain unless it says otherwise.", "UniProt P26599": "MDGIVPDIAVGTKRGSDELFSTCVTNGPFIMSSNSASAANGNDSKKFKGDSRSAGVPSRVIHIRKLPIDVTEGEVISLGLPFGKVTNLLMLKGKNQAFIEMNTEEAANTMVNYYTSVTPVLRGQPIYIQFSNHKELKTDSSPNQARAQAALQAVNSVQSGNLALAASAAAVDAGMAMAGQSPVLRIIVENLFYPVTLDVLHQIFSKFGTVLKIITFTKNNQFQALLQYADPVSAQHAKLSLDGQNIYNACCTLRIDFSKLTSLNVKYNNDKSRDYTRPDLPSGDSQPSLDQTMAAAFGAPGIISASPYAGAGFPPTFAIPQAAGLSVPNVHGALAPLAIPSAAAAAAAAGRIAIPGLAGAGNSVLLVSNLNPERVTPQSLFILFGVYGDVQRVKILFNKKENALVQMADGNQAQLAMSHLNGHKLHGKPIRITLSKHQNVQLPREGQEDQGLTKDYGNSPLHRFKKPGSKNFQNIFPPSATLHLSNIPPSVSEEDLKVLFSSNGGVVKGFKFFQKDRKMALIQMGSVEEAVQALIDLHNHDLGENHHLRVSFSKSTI"}, "source": "patent US20030124550", "key": {"[1]": {"molecular_target": "40S ribosomal protein S5 (rpS5, p25) (Homo sapiens) (UniProt P46782)", "experiment": "binding assay", "details": "UV crosslinking then immunoprecipitation with anti-rpS5 under denaturing conditions; p25 in 40S-containing macromolecular complex; protein in an extract; label: [32P]UTP internal"}, "[2]": {"molecular_target": "Polypyrimidine tract-binding protein (PTB) (Homo sapiens) (UniProt P26599)", "experiment": "binding assay", "details": "UV crosslinking then immunoprecipitation with anti-PTB; single 58 kDa crosslinked protein; protein in an extract; label: [32P]UTP internal"}}, "note": "For at least one entry, the source does not settle the construct or the ends of the probe. Where cells or extracts were used, other partners may take part.", "data": [{"sequence": "GCCAGCCCCCUGAUGGGGGCGACACUCCACCAUGAAUCACUCCCCUGUGAGGAACUACUGUCUUCACGCAGAAAGCGUCUAGCCAUGGCGUUAGUAUGAGUGUCGUGCAGCCUCCAGGACCCCCCCUCCCGGGAGAGCCAUAGUGGUCUGCGGAACCGGUGAGUACACCGGAAUUGCCAGGACGACCGGGUCCUUUCUUGGAUAAACCCGCUCAAUGCCUGGAGAUUUGGGCGUGCCCCCGCAAGACUGCUAGCCGAGUAGUGUUGGGUCGCGAAAGGCCUUGUGGUACUGCCUGAUAGGGUGCUUGCGAGUGCCCCGGGAGGUCUCGUAGACCGUGCACCAUGAGC [HCV 5'NCR IRES RNA (nt 1-347)]", "values": [{"measurement": "binding result", "setting": "[1]", "value": "binds"}, {"measurement": "binding result", "setting": "[2]", "value": "binds"}]}]}
